1 compound from ChEMBL document CHEMBL2434960 (Eur J Med Chem, 2013) can be followed below.

The experiment deals with Replicase polyprotein 1a (Severe acute respiratory syndrome-related coronavirus, UniProt P0C6U8).

Consider `COc1cccc2[nH]c(C(=O)N[C@@H](CC(C)C)C(=O)N[C@@H](C[C@@H]3CCNC3=O)C(=O)c3nc4ccccc4s3)cc12`, for which the affinity, expressed as Kd, was 16 nM.
